Experimental data reported in paper PMC12859517, “Oligomerization is required for channel formation of MctB and for copper resistance of Mycobacterium tuberculosis” (The Journal of Biological Chemistry, 2025).

Target: the molecule itself
Assay: crystal structure

B1: _(His6-ΔN26)MctBtb: recombinant MctB (Rv1698) of M. tuberculosis lacking its 26 N-terminal amino acids, with an N-terminal hexa-histidine tag (domain or fragment)
chain: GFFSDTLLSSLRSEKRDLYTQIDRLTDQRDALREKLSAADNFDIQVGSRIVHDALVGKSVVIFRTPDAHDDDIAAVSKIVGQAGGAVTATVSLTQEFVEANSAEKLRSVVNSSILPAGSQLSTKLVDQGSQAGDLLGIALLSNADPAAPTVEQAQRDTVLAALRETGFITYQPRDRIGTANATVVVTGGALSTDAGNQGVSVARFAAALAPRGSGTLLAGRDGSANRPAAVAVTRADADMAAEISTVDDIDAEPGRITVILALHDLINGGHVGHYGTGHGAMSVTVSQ
notes: not shown: His6, N-terminal, kept
Q: With B1 as the protein, how does the “stoichiometry N” value read?
A: 2
